According to patent publication US20200024330A1:

Assays:
Test in all cases: cell-based or functional assay
[1] = biological target: All HIV-1 pseudoviruses (Env) of the cross-clade 162-pseudovirus panel, n=162
[2] = biological target: HIV-1 Env of the clade C pseudoviruses of the cross-clade 162-pseudovirus panel (n=27)
[3] = biological target: HIV-1 Env of the clade D pseudoviruses of the cross-clade 162-pseudovirus panel (n=25)
[4] = biological target: HIV-1 clade F pseudoviruses (Env) of the cross-clade 162-pseudovirus panel, n=15
[5] = biological target: HIV-1 Env of the clade G pseudoviruses of the cross-clade 162-pseudovirus panel (n=15)
[6] = biological target: HIV-1 Env of all pseudoviruses of the cross-clade 162-pseudovirus panel (n = 162)
[7] = biological target: 162-pseudovirus panel representing all major circulating HIV-1 subtypes
[8] = biological target: HIV-1 clade G pseudoviruses (Env) of the cross-clade 162-pseudovirus panel, n=15
[9] = biological target: HIV-1 clade D pseudoviruses (Env) of the cross-clade 162-pseudovirus panel, n=25
[10] = biological target: HIV-1 clade B pseudoviruses (Env) of the cross-clade 162-pseudovirus panel, n=31
[11] = biological target: HIV-1 Env of the clade B pseudoviruses of the cross-clade 162-pseudovirus panel (n=31)
[12] = biological target: HIV-1 clade A pseudoviruses (Env) of the cross-clade 162-pseudovirus panel, n=26
[13] = biological target: Env of the clade B HIV-1 pseudoviruses of the cross-clade 162-pseudovirus panel (n = 31)
[14] = biological target: Env of the clade D HIV-1 pseudoviruses of the cross-clade 162-pseudovirus panel (n = 25)
[15] = biological target: Env of the clade AE HIV-1 pseudoviruses of the cross-clade 162-pseudovirus panel (n = 10)
[16] = biological target: Env of the clade G HIV-1 pseudoviruses of the cross-clade 162-pseudovirus panel (n = 15)
[17] = biological target: Env of the clade F HIV-1 pseudoviruses of the cross-clade 162-pseudovirus panel (n = 15)
[18] = biological target: Env of the clade C HIV-1 pseudoviruses of the cross-clade 162-pseudovirus panel (n = 27)
[19] = biological target: Env of the clade A HIV-1 pseudoviruses of the cross-clade 162-pseudovirus panel (n = 26)
[20] = biological target: HIV-1 Env of the clade AG pseudoviruses of the cross-clade 162-pseudovirus panel (n=10)
[21] = biological target: HIV-1 clade C pseudoviruses (Env) of the cross-clade 162-pseudovirus panel, n=27
[22] = biological target: HIV-1 Env of the clade A pseudoviruses of the cross-clade 162-pseudovirus panel (n=26)
[23] = biological target: HIV-1 pseudovirus panel of Table 52
[24] = biological target: HIV-1 Env of the clade F pseudoviruses of the cross-clade 162-pseudovirus panel (n=15)
[25] = biological target: HIV-1 Env of the clade AE pseudoviruses of the cross-clade 162-pseudovirus panel (n=10)

Binder | Median IC50 against viruses neutralized with an IC50 <50 µg/ml [13] [µg/mL] | Median IC50 against viruses neutralized with an IC50 <50 µg/ml [14] [µg/mL] | Median IC50 against viruses neutralized with an IC50 <50 µg/ml [15] [µg/mL] | Median IC50 against viruses neutralized with an IC50 <50 µg/ml [16] [µg/mL] | Median IC50 against viruses neutralized with an IC50 <50 µg/ml [17] [µg/mL] | Median IC50 against viruses neutralized with an IC50 <50 µg/ml [18] [µg/mL] | Median IC50 against viruses neutralized with an IC50 <50 µg/ml [19] [µg/mL] | other results
5329_C19 (PGT-136) (antibody, V domains shown) VH: QLQLQESGPGLVKPSETLSLTCTVSGGSMRGTDWGENDFHYGWIRQSSAKGLEWIGSIHWRGRTTHYKTSFRSRATLSIDTSNNRFSLTFSFVTAADTAVYYCARHKYHDIFRVVPVAGWFDPWGQGLLVTVSS VL: EIVMTQSPPTLSVSPGETATLSCRASQNVKNNLAWYQLKPGQAPRLLIFDASSRAGGIPDRFSGSGYGTDFTLTVNSVQSEDFGDYFCQQYEEWPRTFGQGTKVDIK |  |  |  |  |  |  |  | Median IC50 (µg/ml) against viruses neutralized with an IC50 <50 µg/ml [1]: 2 µg/mL; Median IC50 (µg/ml) against viruses neutralized with an IC50 <50 µg/ml [2]: 0.28 µg/mL; Median IC50 (µg/ml) against viruses neutralized with an IC50 <50 µg/ml [3]: 2.1 µg/mL; Percent viruses neutralized with an IC50 <50 µg/ml [4]: 0%; Median IC50 (µg/ml) against viruses neutralized with an IC50 <50 µg/ml [5]: 7.54 µg/mL; Median IC50 (µg/ml) against all viruses [6]: 50 µg/mL; Percent viruses neutralized, IC50 <0.1 µg/ml [7]: 3%; Percent viruses neutralized, IC50 <1 µg/ml [7]: 6%; Percent viruses neutralized, IC50 <50 µg/ml [7]: 16%; Percent viruses neutralized with an IC50 <50 µg/ml [8]: 7%; Percent viruses neutralized with an IC50 <50 µg/ml [9]: 4%; Percent viruses neutralized with an IC50 <50 µg/ml [10]: 3%; Median IC50 (µg/ml) against viruses neutralized with an IC50 <50 µg/ml [11]: 2.09 µg/mL; Percent viruses neutralized with an IC50 <50 µg/ml [12]: 0%
PGT-145 (antibody, V domains shown) VH: QVQLVQSGAEVKKPGSSVKVSCKASGNSFSNHDVHWVRQATGQGLEWMGWMSHEGDKTGLAQKFQGRVTITRDSGASTVYMELRGLTADDTAIYYCLTGSKHRLRDYFLYNEYGPNYEEWGDYLATLDVWGHGTAVTVSS VL: EVVITQSPLFLPVTPGEAASLSCKCSHSLQHSTGANYLAWYLQRPGQTPRLLIHLATHRASGVPDRFSGSGSGTDFTLKISRVESDDVGTYYCMQGLHSPWTFGQGTKVEIK | 0.09 | 1.07 | 0.97 | 0.11 | 0.87 | 0.14 | 0.4 | 
PGT-141 (antibody, V domains shown) VH: QVQLVQSGPEVKKPGSSVKVSCKASGNTFSKYDVHWVRQATGQGLEWVGWMSHEGDKTESAQRFKGRVTFTRDTSASTAYMELRGLTSDDTAIYYCTRGSKHRLRDYVLYDDYGLINYQEWNDYLEFLDVWGHGTAVTVSS VL: DTVVTQSPLSLPVTPGEAASMSCSSTQSLRHSNGANYLAWYQHKPGQSPRLLIRLGSQRASGVPDRFSGSGSGTHFTLKISRVEAEDAAIYYCMQGLNRPWTFGKGTKLEIK | 0.48 | 0.37 | 0.01 | 0.3 | 0.24 | 0.33 | 0.22 | 
PGT-143 (antibody, V domains shown) VH: QVQLEQSGAEVKKPGSSVKVSCKASGNTFSKYDVHWVRQATGQGLEWVGWMSHEGDKTESAQRFKGRVTFTRDTSASTAYMELRGLTSDDTAIYYCTRGSKHRLRDYVLYDDYGLINYQEWNDYLEFLDVWGHGTAVTVSS VL: DTVVTQSPLSLPVTPGEAASMSCTSTQSLRHSNGANYLAWYQHKPGQSPRLLIRLGSQRASGVPDRFSGSGSGTHFTLKISRVEPEDAAIYYCMQGLNRPWTFGKGTKLEIK | 0.39 | 0.28 | 0.02 | 0.21 | 0.36 | 0.17 | 0.27 | 
PGT-142 (antibody, V domains shown) VH: QVQLVQSGPEVKKPGSSVKVSCKASGNTFSKYDVHWVRQATGQGLEWVGWISHERDKTESAQRFKGRVTFTRDTSATTAYMELRGLTSDDTAIYYCTRGSKHRLRDYVLYDDYGLINYQEWNDYLEFLDVWGHGTAVTVSS VL: DTVVTQSPLSLPVTPGEAASMSCSSTQSLRHSNGANYLAWYQHKPGQSPRLLIRLGSQRASGVPDRFSGSGSGTHFTLKISRVEAEDAAIYYCMQGLNRPWTFGKGTKLEIK | 0.4 | 0.19 | 0.01 | 0.21 | 0.22 | 0.09 | 0.25 | 
PGT-144 (antibody, V domains shown) VH: QVQLVQSGAEVKKPGSSVKVSCKASGNTFRKYDVHWVRQATGQGLEWVGWMSHEGDKTESAQRFKGRVSFTRDNSASTAYIELRGLTSDDTAIYYCTGGSKHRLRDYVLYDDYGLINQQEWNDYLEFLDVWGHGTAVTVSS VL: DTVVTQSPLSLSVTPGEAASMSCTSTQSLRHSNGANYLAWYQHKPGQSPRLLIRLGSQRASGVPDRFSGSGSGTHFTLKISRVEADDAAIYYCMQGLNRPWTFGKGTKLEIK | 3.37 | 2.13 | 0.1 | 3.84 | 0.51 | 0.85 | 2.81 | 
5123_A06 (PGT-125) (antibody, V domains shown) VH: QSQLQESGPRLVEASETLSLTCNVSGESTGACTYFWGWVRQAPGKGLEWIGSLSHCQSFWGSGWTFHNPSLKSRLTISLDTPKNQVFLKLTSLTAADTATYYCARFDGEVLVYNHWPKPAWVDLWGRGIPVTVSS VL: QSALTQPPSASGSPGQSITISCNGTATNFVSWYQQFPDKAPKLIIFGVDKRPPGVPDRFSGSRSGTTASLTVSRLQTDDEAVYYCGSLVGNWDVIFGGGTTLTVL |  |  |  |  |  |  |  | Median IC50 (µg/ml) against viruses neutralized with an IC50 <50 µg/ml [1]: 0.78 µg/mL; Median IC50 (µg/ml) against viruses neutralized with an IC50 <50 µg/ml [20]: 0.05 µg/mL; Percent viruses neutralized with an IC50 <50 µg/ml [21]: 26%; Median IC50 (µg/ml) against viruses neutralized with an IC50 <50 µg/ml [2]: 0.18 µg/mL; Median IC50 (µg/ml) against viruses neutralized with an IC50 <50 µg/ml [22]: 0.07 µg/mL; Median IC50 (µg/ml) against viruses neutralized with an IC50 <50 µg/ml [3]: 0.87 µg/mL; Percent viruses neutralized with an IC50 <50 µg/ml [4]: 20%; median IC50, neutralizing activity over the panel [23]: 0.01 µg/mL; Median IC50 (µg/ml) against viruses neutralized with an IC50 <50 µg/ml [24]: 0.37 µg/mL; Median IC50 (µg/ml) against viruses neutralized with an IC50 <50 µg/ml [5]: 0.05 µg/mL; Median IC50 (µg/ml) against viruses neutralized with an IC50 <50 µg/ml [7]: 0.04 µg/mL; Percent viruses neutralized, IC50 <0.1 µg/ml [7]: 32%; Percent viruses neutralized, IC50 <1 µg/ml [7]: 40%; Percent viruses neutralized, IC50 <50 µg/ml [7]: 52%; Percent viruses neutralized with an IC50 <50 µg/ml [8]: 7%; Median IC50 (µg/ml) against viruses neutralized with an IC50 <50 µg/ml [25]: 0.22 µg/mL; Percent viruses neutralized with an IC50 <50 µg/ml [9]: 28%; Percent viruses neutralized with an IC50 <50 µg/ml [10]: 58%; Median IC50 (µg/ml) against viruses neutralized with an IC50 <50 µg/ml [11]: 0.13 µg/mL; Percent viruses neutralized with an IC50 <50 µg/ml [12]: 54%
